# Assay results published in publication PMC4671295.
# Legend:
# Assay in all cases: purified protein
# Details in all cases: pH 8.0; 25.0 °C
# [1] = system: CC(=O)SCCNC(=O)CCNC(=O)[C@H](O)C(C)(C)COP(=O)(O)OP(=O)(O)OC[C@H]1O[C@@H](n2cnc3c(N)ncnc32)[C@H](O)[C@@H]1OP(=O)(O)O
# [2] = system: CN[C@@H]1[C@@H](O)[C@@H](O[C@@H]2[C@@H](O)[C@H](O[C@H]3OC(CN)=CC[C@H]3N)[C@@H](N)C[C@H]2N)OC[C@]1(C)O
# [3] = system: NCC[C@H](O)C(=O)N[C@@H]1C[C@H](N)[C@@H](O[C@H]2O[C@H](CN)[C@@H](O)[C@H](O)[C@H]2O)[C@H](O)[C@H]1O[C@H]1O[C@H](CO)[C@@H](O)[C@H](N)[C@H]1O
# [4] = system: NC[C@@H]1O[C@H](O[C@H]2[C@@H](O)[C@H](O[C@@H]3[C@@H](O)[C@H](N)C[C@H](N)[C@H]3O[C@H]3O[C@H](CN)[C@@H](O)[C@H](O)[C@H]3N)O[C@@H]2CO)[C@H](N)[C@@H](O)[C@@H]1O
# [5] = system: NC[C@@H]1O[C@H](O[C@H]2[C@@H](O)[C@H](O[C@@H]3[C@@H](O)[C@H](N)C[C@H](N)[C@H]3O[C@H]3O[C@H](CO)[C@@H](O)[C@H](O)[C@H]3N)O[C@@H]2CO)[C@H](N)[C@@H](O)[C@@H]1O
# [6] = system: NC[C@H]1O[C@H](O[C@H]2[C@H](O)[C@@H](O[C@H]3O[C@H](CO)[C@@H](O)[C@H](N)[C@H]3O)[C@H](N)C[C@@H]2N)[C@H](O)[C@@H](O)[C@@H]1O
substance,measurement,setting,value
Eis_Ban (Bacillus anthracis str. Sterne),Km,[1],32 ± 8 µM
same,kcat/Km,[1],6700 M⁻¹ s⁻¹
same,Km,[2],76 ± 31 µM
same,kcat/Km,[2],225 M⁻¹ s⁻¹
same,Km,[3],1070 ± 470 µM
same,kcat/Km,[3],92 M⁻¹ s⁻¹
same,Km,[4],469 ± 70 µM
same,kcat/Km,[4],397 M⁻¹ s⁻¹
same,Km,[5],44 ± 11 µM
same,kcat/Km,[5],430 M⁻¹ s⁻¹
same,Km,[6],57 ± 9 µM
same,kcat/Km,[6],2370 M⁻¹ s⁻¹
